# Fitness effects across NS2B and the NS3 protease domain of Zika virus

The measurements come from Ni et al. 2025 (doi:10.1038/s41467-025-63602-z).

Chain scanned (Zika virus MR766; NS2B from position 2 to 131, then the start of NS3):
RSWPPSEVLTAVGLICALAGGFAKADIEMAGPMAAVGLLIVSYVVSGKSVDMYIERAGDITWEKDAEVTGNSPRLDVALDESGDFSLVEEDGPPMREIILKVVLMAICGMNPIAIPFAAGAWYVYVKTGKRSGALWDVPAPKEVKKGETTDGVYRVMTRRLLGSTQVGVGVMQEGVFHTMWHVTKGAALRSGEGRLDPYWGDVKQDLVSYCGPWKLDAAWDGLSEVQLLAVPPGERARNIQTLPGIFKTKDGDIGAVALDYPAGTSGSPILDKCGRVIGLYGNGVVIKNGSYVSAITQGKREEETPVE

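Mutant virus pools were grown in human Huh-7.5 cells. Deep sequencing gave the change in frequency of each mutant relative to wild type, averaged over three replicate libraries (two for positions 207-308).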

Values are log2 effects on growth: 0 is wild type, lower means poorer growth. Each line gives the wild-type residue and site, then new residues with their values. The authors count -1 or higher as tolerated. Position 1 is the last residue of NS2A.

P139: * -5.81, A -6.41, C -4.98, D -4.81, E -5.03, F -4.78, G -6.13, H -6.12, I -4.96, K -5.30, L -7.01, M -5.04, N -5.10, Q -6.05, R -7.01, S -6.46, T -6.95, V -5.96, W -5.38, Y -4.97
A140: * -5.65, C -0.90, D -6.24, E -5.76, F -5.09, G -6.11, H -4.83, I -4.50, K -5.20, L -6.62, M -4.71, N -4.94, P -6.50, Q -4.90, R -5.69, S -1.03, T -6.32, V -6.77, W -4.90, Y -4.84
P141: * -5.77, A -6.04, C -4.49, D -4.10, E -4.25, F -4.46, G -5.45, H -1.32, I -4.22, K -4.70, L -4.93, M -4.51, N -4.64, Q -4.82, R -6.33, S -6.19, T -2.86, V -5.50, W -5.20, Y -4.68
K142: * -6.04, A -1.76, C -2.95, D -4.55, E -3.74, F -3.83, G -5.37, H -2.84, I -2.64, L -3.39, M -1.64, N -4.35, P -1.20, Q -1.90, R -0.35, S -3.31, T -1.92, V -2.19, W -5.07, Y -4.19
E143: * -3.46, A -1.18, C -0.64, D -3.27, F -0.69, G -2.61, H -1.50, I -0.22, K -3.54, L -0.91, M -0.78, N -1.52, P -1.51, Q -0.72, R -2.66, S -0.78, T -0.39, V 0.61, W -3.09, Y -1.38
V144: * -6.71, A -2.17, C -1.92, D -4.06, E -3.56, F -1.62, G -5.19, H -1.13, I -0.83, K -1.64, L -2.26, M -1.58, N -1.77, P -3.24, Q -1.20, R -1.77, S -1.13, T -1.36, W -2.90, Y -3.38
K145: * -6.38, A -1.50, C -1.42, D -3.36, E -1.08, F -1.78, G -3.28, H -1.02, I -0.70, L -1.29, M -1.31, N -1.64, P -0.99, Q -1.02, R -1.39, S -2.04, T -1.06, V -0.51, W -3.64, Y -2.28
K146: * -6.53, A -2.40, C -1.18, D -5.46, E -3.16, F -2.17, G -3.10, H -1.43, I -1.61, L -1.42, M -1.48, N -2.67, P -1.08, Q -1.56, R -0.88, S -2.36, T -1.93, V -1.49, W -4.32, Y -2.83
G147: * -4.41, A -0.85, C -4.11, D -4.69, E -4.46, F -1.60, H -3.48, I -3.75, K -4.76, L -4.05, M -4.09, N -5.22, P -1.15, Q -4.26, R -5.86, S -4.40, T -3.04, V -2.51, W -2.34, Y -4.41
E148: * -5.08, A -1.56, C -2.07, D -1.53, F -3.77, G -2.10, H -3.63, I -1.36, K -2.36, L -1.41, M -2.01, N -1.95, P -2.98, Q -1.14, R -2.11, S -1.43, T -0.80, V -1.32, W -5.57, Y -3.06
T149: * -5.09, A -3.06, C -1.43, D -3.59, E -3.51, F -5.15, G -5.74, H -5.69, I -2.04, K -4.82, L -6.27, M -4.88, N -3.95, P -6.73, Q -2.88, R -3.61, S -3.91, V -1.47, W -5.38, Y -5.10
T150: * -6.01, A -3.93, C -1.91, D -2.16, E -3.27, F -1.96, G -0.99, H -0.76, I -1.21, K -2.19, L -3.00, M -2.12, N -1.44, P -6.26, Q -2.92, R -3.01, S -0.93, V -3.49, W -2.97, Y -2.24
D151: * -7.01, A -2.11, C -1.40, E -1.14, F -3.14, G -4.11, H -2.98, I -5.79, K -5.77, L -6.84, M -2.32, N -1.44, P -4.93, Q -3.41, R -6.84, S -2.35, T -2.86, V -5.04, W -2.06, Y -2.42
G152: * -6.89, A -6.38, C -5.73, D -5.59, E -5.77, F -5.83, H -5.73, I -5.61, K -5.90, L -7.40, M -5.56, N -5.52, P -6.55, Q -5.73, R -6.25, S -7.26, T -6.67, V -3.81, W -6.02, Y -5.83
V153: * -5.96, A -5.12, C -2.54, D -4.66, E -5.63, F -1.12, G -6.43, H -5.03, I 0.14, K -5.59, L 0.61, M -5.44, N -4.96, P -6.54, Q -5.58, R -7.10, S -6.97, T -6.03, W -6.05, Y 0.58

Values above 0 are not proof of better growth: six high scorers were tested one by one, five grew less well than wild type and one about as well. Positions 1-103, 104-206 and 207-308 were made and measured as separate libraries. An asterisk is a stop codon; stop codons read about -7, near the floor of the assay.